Results of unrelated studies side by side (data: NIAID ChemDB).

Common to all: whole-cell or culture tests; organism: Herpes simplex virus 1; method: cytopathic effect; read-out: EC50

Conditions beyond the fields shown may differ between rows. ECn: concentration that inhibits the pathogen or its effect by n%.

SMILES,cells,strain or isolate,result
Nc1nc2c(ncn2COC(CO)CO)c(=O)[nH]1,HEL,PCV-resistant/A,1.75 µg/mL
Nc1ncnc2c1ncn2C[C@@H](CO)OCP(=O)(O)O,U87MG,KOS,1.54 µg/mL
Nc1nc(=O)n([C@@H]2O[C@H](CO)[C@@H](O)[C@@H]2F)cc1I,HEL,KOS PMEA-resistant,0.01 µg/mL
CC[C@H]1[C@@H]2C[C@H]3[C@@H]4N(C)c5ccccc5[C@]45C[C@@H]([C@@H]2[C@H]5O)N3[C@@H]1O,HeLa,KOS,>200 µg/mL
O=C(O)P(=O)(O)O,HEL,PCV-resistant/A,23 µg/mL
O=C(O)CP(=O)(O)O,HEL,KOS GCV-resistant,16 µg/mL
Nc1nc2c(ncn2CCC(CO)CO)c(=O)[nH]1,HEL,KOS,0.02 µg/mL
OC[C@@H](O)C(O)[C@H](O)CO,HeLa,KOS,>200 µg/mL
Nc1nc2c(ncn2COCCOP(=O)(O)C(=O)O)c(=O)[nH]1,VERO,L2/R,286 µM
CC[C@@H]1[C@@H](C)O[C@@](O)([C@@H](C)[C@H](O)[C@H](C)[C@H]2OC(=O)/C=C/C=C/[C@H](C)[C@@H]([C@@H](C)[C@@H](O)[C@H](C)[C@@]3(O)C[C@@H](O[C@H]4C[C@H](O)[C@H](O)[C@H](C)O4)[C@H](CC)[C@@H](C)O3)OC(=O)/C=C/C=C/[C@@H]2C)C[C@H]1O[C@H]1C[C@H](O)[C@H](O)[C@H](C)O1,HeLa,KOS,>200 µg/mL
Nc1ncc2c(ncn2COC(CO)CO)n1,HEL,KOS,0.12 µg/mL
O=C(O)CP(=O)(O)O,HEL,PCV-resistant/A,12 µg/mL
Nc1ncnc2c1ncn2[C@@H]1O[C@H](CO)[C@@H](O)[C@@H]1O,HEL,KOS HPMPA-resistant,11.9 µg/mL
Nc1ccn(C[C@@H](CO)OCP(=O)(O)O)c(=O)n1,VERO,KOS,6.7 µg/mL
CC1(C)C2CCC1(C)C(O)C2,HeLa,KOS,>200 µg/mL
Nc1ncnc2c1ncn2CCOCP(=O)(O)O,HEL,KOS ACV-resistant,15.8 µg/mL
COC(=O)c1c(OC)cc2cc3c(c(O)c2c1C)C(=O)[C@]1(O)C(=O)C=C(OC)[C@@H](O)[C@]1(O)C3=O,HeLa,KOS,32 µM
Nc1nc2c(ncn2COC(CO)CO)c(=O)[nH]1,HEL,KOS BVDU-resistant,0.76 µg/mL

Again, the opening 2 rows:

Nc1nc2c(ncn2COC(CO)CO)c(=O)[nH]1 ; cells: HEL ; strain or isolate: PCV-resistant/A ; result: 1.75 µg/mL
Nc1ncnc2c1ncn2C[C@@H](CO)OCP(=O)(O)O ; cells: U87MG ; strain or isolate: KOS ; result: 1.54 µg/mL